## Screening data, single-dose tests

From ChEMBL document CHEMBL3988442, “University of Dundee, Small-Polar-MMV Screening Library” (2021).

Each number is a percent effect as filed. The controls that fix the scale are not given in the record; negative values are as filed. The entries come from a sample that favours strong results. Two or more numbers in one place are separate tests of the same structure; such repeats can differ widely. A dash means the value is not listed here; it may have been measured.

Mtb glucose medium: 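Whole-cell growth test on Mycobacterium tuberculosis, read after 3 days in glucose-containing 7H9 medium; the read-out is not stated. Compounds at 50 µM. The record gives no direction; compounds that gave an IC50 in retests scored well above the rest, so higher reads as more growth inhibition. About 69,000 compounds were tested under these conditions; 1.1% (about 760) showed 50% or more at least once.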
Mtb cholesterol medium: 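Phenotypic screen: M. tuberculosis growth, cholesterol and DPPC medium, 4 days; the read-out is not stated. Compounds at 50 µM. The record gives no direction; compounds that gave an IC50 in retests scored well above the rest, so higher reads as more growth inhibition. Size under these conditions: about 69,000 compounds, about 370 of them at 50% or above in at least one test.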

compound,Mtb glucose medium,Mtb cholesterol medium
CCOc1ccc(OCc2nccc(-c3cc(C(=O)O)ccn3)n2)cc1,-,107.4
CC(C)n1c(=O)nc2n1C(=O)N(c1ccccc1)C2,-5.225 and 17.14,-
CCSC1=Nc2c(cnn2-c2ccc(Cl)cc2)C2=NCCCN12,82.44,55.74
CN(C(=O)CN1CCCC1Cc1ccccc1)c1ccccc1 (centres undefined),50.05 and 40.5,-
COc1ccc(N2CCC(N3CCOC(C(F)(F)F)C3)CC2)cc1 (centres undefined),11.1,-
c1ccc2nc(N3CCOC(Cn4cncn4)C3)cnc2c1 (centres undefined),-9.949,-9.851
O=C(O)CC(O)(CC(=O)O)C(=O)O.[H][C@@]12CC[C@@](O)(c3ccc(C)cn3)[C@]1([H])CN(Cc1cccc(F)c1F)C2,24.58,-
CC(Cn1cccn1)NCc1csc(-c2ccccc2)n1 (centres undefined),39.45,-
O=C(CCN1CCCC1c1cccc2c1OCCO2)N1CCCCC1 (centres undefined),41.17,-
CSc1ccc(OCCN2CCNC(=O)CC2)cc1,14.83,-
O=C(c1cc(=O)n(-c2ccccc2)[nH]1)N1CCOCC(O)C1 (centres undefined),-,-12.51
CN(Cc1ccco1)Cc1cncc2c1CCN(c1ncccn1)C2.Cl.Cl,13.59,-
O=C(NC1CCCC1)c1cnn2c(-c3ccco3)ccnc12,52.1,-
CSc1nnc(CNC(=O)Nc2ccccc2F)n1C,-,-9.002 and -9.887
[H][C@]12CC[C@]([H])(CN(c3ncnc4ccsc34)C1)N(C)C2=O,-0.3028 and -48.12,-
Cc1cc(=O)[nH]c(SC(C)C(=O)N2CCCN(C3CCCC3)CC2)n1 (centres undefined),-8.551,-
O=C(c1coc(COc2cccc3cnccc23)n1)N1CCSCC1,-19.45 and 0.9077,-1.62 and 39.96
Cc1nc(NC2CCCC2)cc(C2CCN2c2ncccn2)n1 (centres undefined),7.248,-
Cc1c(NC(=O)c2ccc(Br)cc2)c(C(=O)N(C)C)nn1C,3.789,-
Cn1ccnc1CN1CCN(c2ccc(C#N)cn2)CC1,16.81,-
O=C(c1ccc(Cn2cnnn2)cc1)N1CCC(c2ccncc2)CC1,-,90.92
CCCc1nc2c(c(C)c(C)n2Cc2cccnc2)c(N)c1CC,17.67 and 18.11,-
NC(=O)C1CCN(C(=O)CCCc2ccc(Cl)c(Cl)c2)CC1,10.27,-11.44
CNC(=O)N1CCC(=Cc2ccccc2)CC1,14.49 and -1.055,4.843
CCc1ccccc1CN1CCC(N2CCCC2=O)CC1,17.26,-
CC1CCC(O)(CSc2nnnn2C2CC2)CC1 (centres undefined),50.11,-
Cn1nc(CN2CCCN(C3CCCC3)CC2)c2c(Cl)cccc21,63.78,-
COCCNC(=O)c1ccc(C)c(-n2cccc2)c1,4.762 and -6.375,-
CN(C)c1ccc(CC(=O)N2C[C@H](C3CC3)[C@@H](N)C2)cc1,-2.606 and 12.36,-11.08
CCCc1nc2c(c(C)c(C)n2Cc2ccccn2)c(N)c1CC,16.81 and 23.02,-
CN(C)C(=O)c1nnn(-c2ccc(Br)cc2)n1,64.95,-
Cc1oc(-c2cccs2)nc1C(=O)N(C)C1(C#N)CCC1,10.44,-
Cc1nc(-c2cccc(N3CCC(NC4CCOCC4)CC3)c2)cs1,-5.095,-3.591
O=C1CCC(=O)N1CCN1CCC(=Cc2ccccc2)CC1,-2.746,-
Cc1noc(NC(=O)c2cccc(Br)c2)n1,88.85,-
CCn1cnnc1CN(C)Cc1nc(-c2cc(OC)ccc2F)oc1C,4.339,-
COC(=O)c1cc(C)nc(N2CCN(Cc3cc(C(C)C)no3)CC2)n1,-2.917 and 106.3,-
O=C(CC1CCCCC1)N1CCC(c2ncc3c(n2)CCNC3)CC1,13.08,-
CC(=O)NCC(=O)N1CCc2nc(-c3ccccc3)nc(C)c2CC1,5.165 and 52.34,-
COc1ncc(C)cc1NC(=O)COCC(F)(F)F,-10.79 and 0.2054,-
CCC[C@H]1CN(S(=O)(=O)c2cc(C)ccc2F)C[C@@H]1N,15.41,-
COCc1ccc(C(=O)NCCCNc2ccc(C(F)(F)F)cn2)cc1,-7.192,-
CCc1[nH]c2c(CNc3cncc(C(=O)N(C)C)n3)cc(C)cc2c1C,-14.58,7.946
N#Cc1cn[nH]c1NCc1cc(Br)ccc1O,50.28,-
CCC[C@@H]1CN(C(=O)c2cc3ccccc3s2)C[C@H]1NS(C)(=O)=O,6.427 and 2.189,-
Cc1nnc(CCNC(=O)Nc2ccc(S(C)(=O)=O)cc2)[nH]1,-3.646,-46.21
CCCc1ncc(CN(CCOC)Cc2cccs2)cn1,16.85 and 14.29,17.77
Cc1cc(N2CCCCC2)c(C#N)c(C)n1,10.47,-
Cc1ccc(C(=O)N2CCCC(Nc3ccc(F)cc3)C2)cc1 (centres undefined),-,26.34 and 51.18
CN(C)c1ncc2c(n1)C1(CCN(Cc3ccccc3F)C1)COC2.O=C(O)C(F)(F)F (centres undefined),32.91 and 2.397,-
NC(=O)CNC(c1ccccc1)c1ccccc1,-11.07 and -2.807,-
CN(Cc1cnn(C)c1)C(=O)CCC(=O)c1ccc2c(c1)OCCO2,-,-0.8241
NCCc1nc(N(Cc2nccs2)C2CC2)c2ccccc2n1,-22.94,-
CN(Cc1c(F)cccc1Cl)C(=O)CN(C)C1CCc2ccccc21 (centres undefined),-0.1692,10.17
CC(C)c1nc(N2CCC(N3CCSCC3)CC2)c2cnn(C)c2n1,40.12,-
Oc1cccc(CNCc2ccc(-n3cncn3)nc2)c1,-,-14.43
Cc1cc(C(=O)N2CCN(c3nc4c(C)cccc4s3)CC2)no1,26.49,13.75
CCc1cc2cc(OC)c(OC)cc2nc1SCCN1CCCCC1.Cl,21.56,-